Data as given in PubChem BioAssay AID504761 (Drosophila RNAi Screening Center, 2011).
The deposit covers about 22,000 reagents; this is an unselected part of those with a known target gene and a result. In the full data, 116 (0.52%) are marked active. 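Calls depend on retest data that are not deposited; infection was ranked per plate without normalising between plates; the unit of the infection score is not given.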 The raw values are shown without normalisation. A number with no mark means an inactive call. The record does not give: the amount of reagent, the time to read-out.

Assay: 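Insect host genes that dengue virus relies on to spread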 (primary screen)
Cell system: D.Mel-2 cells from Drosophila
Reagent: long dsRNA against Drosophila genes
Conditions: infection with dengue virus type 2; dose and infection time not stated
Measurement: 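Per well on two replicate plates, imaging gave the percent of cells positive for viral envelope protein, ranked by infection, and a nuclear count of cells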
Direction: infection score: higher = more virus-infected cells; cell count: higher = more cells in the well
Active means: 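Very low infection ranking in both replicate wells (chance probability at most 0.065), then a retest showing infection dropped 1.5-fold or more at p below 0.05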
Meaning of the calls: active = confirmed: knock-down lowers infection; inactive = not picked or not confirmed

gene knocked down | amplicon | infection score, replicate 1 | infection score, replicate 2 | cell count, replicate 1 | cell count, replicate 2
dj (GeneID 40838) | DRSC12625 | 4.81 | 12 | 6691 | 5501
dj (GeneID 40838) | DRSC25525 | 1.12 | 0.52 | 6757 | 6521
CG31556 (retired record) (GeneID 318800) | DRSC12122 | 4.98 | 5.51 | 6285 | 5722
CG31556 (retired record) (GeneID 318800) | DRSC22177 | 4.75 | 19.7 | 6294 | 5657
CG31556 (retired record) (GeneID 318800) | DRSC23922 | 3.57 | 8.33 | 6109 | 6149
CG13108 (GeneID 34240) | DRSC02206 | 4.68 | 2.64 | 5661 | 4888
CG8093 (GeneID 36686) | DRSC07078 | 10 | 24.7 | 7099 | 4979
tipE (GeneID 38504) | DRSC08738 | 14.9 | 3.08 | 6126 | 6101
tipE (GeneID 38504) | DRSC29985 | 8.31 | 6.61 | 6136 | 5972
CG12239 (GeneID 31509) | DRSC17832 | 7.4 | 5.27 | 6084 | 6400
CG12239 (GeneID 31509) | DRSC27969 | 6.68 | 17.7 | 6358 | 4602
bgcn (GeneID 47873) | DRSC04062 | 6.03 | 7.38 | 6401 | 6652
bgcn (GeneID 47873) | DRSC04063 | 3.04 | 23.8 | 6846 | 6678
Scsalpha1 (GeneID 38447) | DRSC08698 | 19.9 | 3.02 | 3908 | 728
Scsalpha1 (GeneID 38447) | DRSC26856 | 9.57 | 6.6 | 6403 | 6106
CG12438 (GeneID 34202) | DRSC02167 | 5.33 | 8.38 | 6346 | 1814
CG14219 (GeneID 32951) | DRSC19576 | 4.63 | 1.18 | 5847 | 6789
CG14219 (GeneID 32951) | DRSC26450 | 2.23 | 4.32 | 6586 | 6430
CG32237 (GeneID 38584) | DRSC08312 | 4.51 | 0.41 | 6146 | 5907
CG32237 (GeneID 38584) | DRSC08315 | 1.31 | 1.62 | 6044 | 6042
CG32237 (GeneID 38584) | DRSC29288 | 23.8 | 23.4 | 5307 | 4009
CG7872 (GeneID 32493) | DRSC20062 | 7.21 | 3.48 | 6494 | 6953
DIP2 (GeneID 252479) | DRSC08582 | 10.9 | 13.4 | 6174 | 4800

3 entries from above, reformatted.
{"gene knocked down":"CG31556 (retired record) (GeneID 318800)","amplicon":"DRSC23922","infection score, replicate 1":3.57,"infection score, replicate 2":8.33,"cell count, replicate 1":6109,"cell count, replicate 2":6149}
{"gene knocked down":"CG13108 (GeneID 34240)","amplicon":"DRSC02206","infection score, replicate 1":4.68,"infection score, replicate 2":2.64,"cell count, replicate 1":5661,"cell count, replicate 2":4888}
{"gene knocked down":"CG8093 (GeneID 36686)","amplicon":"DRSC07078","infection score, replicate 1":10,"infection score, replicate 2":24.7,"cell count, replicate 1":7099,"cell count, replicate 2":4979}
